Measurements taken from patent US20100234454A1 (priority 2006, published 2010).

System: rats
Assay: Flinches in rats after intraplantar injection of crude Cyanea capillata venom
Assay type: in vivo, rat
Settings: 40 mg/kg BCTC s.c. one hour before venom, 4 minutes, p<0.05, n=6

Compound: CC(C)(C)c1ccc(NC(=O)N2CCN(c3ncccc3Cl)CC2)cc1 [BCTC, N-(4-Tertiarybutylphenyl)-4-(3-cholorphyridin-2-yl)tetrahydropyrazine-1(2H)-carbox-amide]
- number of flinches (mean) after intraplantar crude venom following BCTC: 14.0
